Anti-infective test results gathered from many reports (values: NIAID ChemDB through PubChem).

Shared fields: tests in culture; agent: Rhinovirus; read by: plaque count; read-out: EC50

Blank or dashed fields: not listed here. ECn: concentration that inhibits the pathogen or its effect by n%. Conditions beyond the fields shown may differ between rows.

| SMILES | cell line | strain | value |
|---|---|---|---|
| CN(C)c1nc(C(F)(F)F)nc2c1ncn2Cc1ccc([N+](=O)[O-])cc1 | M-HELA | Serotype 13 | >8 µM |
| CN(C)c1ncnc2c1ncn2Cc1ccc(OCc2ccccc2)cc1 | M-HELA | Serotype 1B | >50 µM |
| CCN(c1cccc(F)c1)c1nc(C(F)(F)F)nc2c1ncn2Cc1cccc(F)c1 | M-HELA | Serotype 4 | >10 µM |
| CN(C)c1nc(C(F)(F)F)nc2c1ncn2Cc1ccc(F)cc1 | M-HELA | TYPE 1B | 0.05 µM |
| Cn1c2ccccc2c2nnc(NCCCCCCO)nc21 | WI-38 | 2060 | 100 µg/mL |
| Fc1cccc(Cn2cnc3c(Nc4cccc(F)c4)nc(C(F)(F)F)nc32)c1 | M-HELA | Serotype 1A | 1.3 µM |
| CC(C)S(=O)(=O)n1c(N)nc2ccc(C(C(N)=O)c3ccccc3F)cc21 | HeLa | 1059 (serotype 14) | 0.03 µg/mL |
| Cc1cc(CCCOc2c(Cl)cc(C3=NCCO3)cc2Cl)on1 |  | Serotype 16 | 0.15 µg/mL |
| Cn1c2ccccc2c2nnc(NCCCCCO)nc21 | WI-38 | HGP | 45 µg/mL |
| CN(C)c1nc(C(F)(F)F)nc2c1ncn2Cc1ccc(Cl)cc1Cl | M-HELA | Serotype 31 | >8 µM |
| CN(C)c1nc(Cl)nc2c1ncn2Cc1ccc(Cl)cc1 | M-HELA | Serotype 31 | >5 µM |
| Cc1ccc(Cn2cnc3c(N(C)C)nc(C(F)(F)F)nc32)cc1C | M-HELA | Serotype 5 | >8 µM |
| CC(C)n1c(N)nc2ccc(C(C(N)=O)c3cccc(F)c3F)cc21 | HeLa | 1059 (serotype 14) | 0.07 µg/mL |
| CN(C)CCCNc1nnc2c3ccccc3n(C)c2n1 | WI-38 | 33342 | 4 µg/mL |
| CN(C)c1nc(C(F)(F)F)nc2c1ncn2Cc1cccc(F)c1 | M-HELA | Serotype 5 | >8 µM |
| Cn1c2ccccc2c2n[nH]c(=S)nc21 | WI-38 | 33342 | 0.16 µg/mL |
| CN(C)c1nc(Cl)nc2c1ncn2Cc1ccc(C#N)cc1 | M-HELA | Serotype 1B | >50 µM |
| Cc1cc(Cl)ccc1Cn1cnc2c(N(C)C)nc(C(F)(F)F)nc21 | M-HELA | Serotype 1B | 0.13 µM |
| CC(=O)OCCCNc1nnc2c3ccccc3n(C)c2n1 | WI-38 | 33342 | 20 µg/mL |
| CN(C)c1ncnc2c1ncn2Cc1ccc(N)cc1 | M-HELA | Serotype 1B | >50 µM |
| Cc1ccc(Cn2cnc3c(N(C)C)nc(C(F)(F)F)nc32)cc1 | M-HELA | TYPE 4 | >2.5 µM |
| CNC(=O)C(c1ccc2nc(N)n(S(=O)(=O)C(C)C)c2c1)c1ccc(F)c(F)c1F | HeLa | 1059 (serotype 14) | 0.01 µg/mL |
| Cc1cc(CCCCCOc2c(Cl)cc(C3=NCCO3)cc2Cl)on1 | HeLa | TYPE 18 | 0.26 µg/mL |
| CCCn1c2ccccc2c2nnc(SC)nc21 | WI-38 | 33342 | 4 µg/mL |
| CN(C)c1nc(C(F)(F)F)nc2c1ncn2Cc1ccccc1Cl | M-HELA | Serotype 5 | >8 µM |
| Cc1cc(CCCOc2c(C)cc(-c3nnn(C)n3)cc2C)on1 |  | Serotype 16 | 0.037 µg/mL |
| CC(C)S(=O)(=O)n1c(N)nc2ccc(C(C(N)=O)c3ccccc3)cc21 | HeLa | 1059 (serotype 14) | 0.04 µg/mL |

2 of the rows above, restated:

{"SMILES": "CC(C)S(=O)(=O)n1c(N)nc2ccc(C(C(N)=O)c3ccccc3F)cc21", "cell line": "HeLa", "strain": "1059 (serotype 14)", "value": "0.03 µg/mL"}
{"SMILES": "CN(C)c1nc(C(F)(F)F)nc2c1ncn2Cc1cccc(F)c1", "cell line": "M-HELA", "strain": "Serotype 5", "value": ">8 µM"}